For 1 molecule, koff results are on record in patent publication US20230287088A1 (BIONTECH, published 2023).

As usually defined, the koff is the first-order rate constant of dissociation.

For this assay, the target named is T1, Mouse-Fc-tagged SARS-CoV2 S1-RBD (Sino Biologicals) recombinant protein (SARS-CoV-2, UniProt P0DTC2 319-541).
T1 construct: domain: S1-RBD
As to the kind of experiment: […] row Mean of six measurements (StDev 0.79).

B1: P043.A.00095.D06 (protein sample ID 470) (antibody, V domains shown)
VH: QEQLEESGGDLVKPEGSLTLTCTASGFSFSSNYWICWVRQAPGKGLEWIGCIYIGSGDTYYASWAKGRFTISKTSSTTVTLQMTSLTAADTATYFCARSYTPGSYYNMNLWGPGTLVTVSS
VL: DVVMTQTPSSVSAAVGGTVTINCQASQQISNELSWYQQKSGQPPKLLIYDASDLASGVPSRFKGSGSGTEFTLTISDLESADAATYYCQSTGGASSDGNAFGGGTEVVVK
notes: also called S1 targeting antibody 470; anti-S1-antibody 470
Regarding B1, the koff amounted to 7.68e-05 s⁻¹.
